PubChem BioAssay AID504582 (Broad Institute, 2011)
The entries are a selection whose mix differs from that of the whole data set. The source made the active and inactive calls. Rule as the data show it: active = growth rescue above about 28% (passing the limit was not always enough); inconclusive = no clear call, values can overlap the other calls.

Test: rescue of yeast from PfHsp40 toxicity, primary screen, S. cerevisiae, ATP luminescence (AID 504582);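 also: yeast W303a lacking pdr1 and pdr3 grown in galactose medium; growth measured after three days at 30 °C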
Conditions: S. cerevisiae expressing PfHsp40, growth rescue, at 12.5 µM, active compounds read high

Compound | growth rescue
O=C(OCCN1CCN(CCOCc2ccccc2)CC1)C(O)(c1ccccc1)c1ccccc1 | inactive: -0.4%
O=C(OC1CN2CCC1CC2)c1ccc([N+](=O)[O-])cc1 (stereo not drawn) | inactive: 0.443%
CP(=O)(Nc1ccccc1F)Oc1ccccc1 (stereo not drawn) | inactive: 0.229%
CC1=CC2OC3CC4OC(=O)C=CC=CC(=O)OCCC(C)C(O)C(=O)OCC2(CC1)C4(C)C31CO1 (stereo not drawn) | inactive: 5.28%
Cc1ccccc1NP(C)(=O)Nc1ccccc1C | inactive: 0.982%
CP(=O)(Nc1ccc2c(c1)OCCO2)Oc1ccccc1 (stereo not drawn) | inactive: -0.078%
CCOP(C)(=S)SCC(=O)NC(C)(CC)C(=O)O (stereo not drawn) | inactive: 0.153%
CP(=O)(Nc1ccc(SC(F)(F)F)cc1)Oc1ccc(F)cc1 (stereo not drawn) | inactive: 0.481%
Cc1c(C(c2ccc3c(c2)OCO3)c2c(C)n(C)n(-c3ccccc3)c2=O)c(=O)n(-c2ccccc2)n1C.O=[N+]([O-])c1cc([N+](=O)[O-])c(O)c([N+](=O)[O-])c1 | inactive: -0.708%
Cc1cc(-c2cccc3ccccc23)c(C)cn1.O=[N+]([O-])c1cc([N+](=O)[O-])c(O)c([N+](=O)[O-])c1 | inactive: -3.2%
O=[N+]([O-])c1cc([N+](=O)[O-])c(NCC2CCS(=O)(=O)C2)c([N+](=O)[O-])c1 (stereo not drawn) | inactive: -0.446%
O=[N+]([O-])c1ccc(OP2(=O)COCCO2)cc1 (stereo not drawn) | inactive: 4.58%
CC1=CC2OC3CC4OC(=O)C=CC=CC(=O)OCCC(C)C(O)C(=O)OCC2(CC1O)C4(C)C31CO1 (stereo not drawn) | inactive: 2.74%
COc1ccc(NP(C)(=O)Oc2ccccc2OC)cc1 (stereo not drawn) | inactive: 0.225%
CN(C)CCOC(=O)C(O)(c1ccccc1)C1CCCCC1 (stereo not drawn) | inactive: -1.72%
CN(C)C1(CNC(=O)c2ccc(Cl)c(S(N)(=O)=O)c2)CCCCC1 | inactive: 0.029%
COc1ccc(OP(C)(=O)Nc2cccc(Br)c2)cc1 (stereo not drawn) | inactive: 0.459%
CP(=O)(OC12CC3CC(CC(C3)C1)C2)OC12CC3CC(CC(C3)C1)C2 | inactive: 0.341%
CCOC(=O)c1ccc(NP(C)(=O)Oc2ccc(Cl)cc2)cc1 (stereo not drawn) | inactive: -0.008%
CN(C)C(=O)c1c([N+](=O)[O-])cc([N+](=O)[O-])cc1[N+](=O)[O-] | inactive: -1.05%
CP(=O)(Nc1ccc(Cl)cc1)Oc1ccc(F)cc1 (stereo not drawn) | inactive: -1.48%
CC1=CC2OC3CC4OC(=O)/C=C/C=CC(C(C)O)OCC(O)C(C)CC(=O)OCC2(CC1O)C4(C)C31CO1 (stereo not drawn) | inactive: -1.86%
CC(C)(C)c1ccc(OP(C)(=O)O)cc1 | inactive: 2.68%
COc1ccccc1OP(C)(=O)Nc1ccccc1Br (stereo not drawn) | inactive: 0.349%

Compound | growth rescue
CP(=O)(Oc1ccccc1)N1CCOC1=O (stereo not drawn) | inactive: 2.07%
CCc1ccc(OP(C)(=O)Nc2cccnc2)cc1 (stereo not drawn) | inactive: -0.039%
COc1ccccc1OP(C)(=O)Nc1c(C)n(C)n(-c2ccccc2)c1=O (stereo not drawn) | inactive: 0.009%
O=C(OCCCN1CCCC1)C(O)(c1ccccc1)C1CCCCC1 (stereo not drawn) | inactive: -0.0185%
CCN(CC)CC(O)COC(=O)C(O)(c1ccccc1)C1CCCCC1 (stereo not drawn) | inactive: 0.601%
COc1ccc(OP(C)(=O)Nc2ccc(Br)cc2)cc1 (stereo not drawn) | inactive: 0.128%
CC(=O)OC[C@]12CCC(C)=C[C@H]1O[C@@H]1[C@H](O)[C@@H](OC(C)=O)[C@@]2(C)[C@]12CO2 | inactive: 8.81%
CCc1ccc(OP(C)(=O)O)cc1 | inactive: -0.075%
CP(=O)(Nc1ccccn1)Oc1ccccc1 (stereo not drawn) | inactive: -0.657%
COc1ccccc1OP(C)(=O)Nc1ccc(C)cc1C (stereo not drawn) | inactive: -0.94%
O=[N+]([O-])c1cc([N+](=O)[O-])c(Nc2ccccn2)c([N+](=O)[O-])c1 | inactive: 2.53%
Cc1c(NP(C)(=O)Oc2ccc(C(C)C)cc2)c(=O)n(-c2ccccc2)n1C (stereo not drawn) | inactive: -0.703%
CN(C)CCOC(=O)C(O)(c1ccccc1)C1CCCC1 (stereo not drawn) | inactive: -1.33%
COc1ccccc1OP(C)(=O)Nc1ccc(Br)cc1 (stereo not drawn) | inactive: -0.446%
CC1=CC2OC3CC4OC(=O)C=CC=CC(C(C)O)OCC(O)C5(C)OC5C(=O)OCC2(CC1O)C4(C)C31CO1 (stereo not drawn) | inactive: -1.36%
CC(=O)OC1C(=O)OCC23CCC4(C)OC4C2OC2CC(OC(=O)C=CC=CC(=O)OCCC1C)C3(C)C21CO1 (stereo not drawn) | active: 536%
CP(=O)(OCCOc1ccccc1)OCCOc1ccccc1 | inactive: -1.31%
CP(=O)(Nc1ccc(Cl)cc1Cl)Oc1ccccc1 (stereo not drawn) | inactive: -0.927%
CCCCCCCCCCCCCCCC1C[N+](C)(C)CCOP(C)(=O)O1 (stereo not drawn) | active: 197%
COc1ccc(OP(C)(=O)Nc2ccccc2Br)cc1 (stereo not drawn) | inactive: -0.844%
COc1ccccc1OP(C)(=O)Nc1ccc(C)c(C)c1 (stereo not drawn) | inactive: -0.0595%
O=C1C(O)=C([N+](=O)[O-])C(=O)C(O)=C1[N+](=O)[O-] | inactive: 0.0395%
CC(=O)O[C@H]1C[C@@H]2OC3C=C(C)CCC3(C)[C@@]1(C)[C@@]21CO1 (stereo partly drawn) | inactive: 5.05%
Cc1cc(C)cc(OP(C)(=O)Nc2cccc(C(F)(F)F)c2)c1 (stereo not drawn) | inactive: 1.12%
